As usually defined, the inhibition is the drop in the measured response relative to a control, in per cent.

The list shows a part of the results, in another mix than the full data. Active and inactive are the calls of the source. Cut-off read from the data, not from the text of the source: active = inhibition above about 8.5% (passing the limit was not always enough); inconclusive = no clear call, values can overlap the other calls.

This is an account of results in PubChem BioAssay AID588549 (Broad Institute, 2011).

In the experiment the test system is Mycobacterium tuberculosis FadD28 fatty-acid-AMP ligase. Put plainly: inhibitors of FadD28 bisubstrate probe binding, primary screen, biochemical, fluorescence polarization, single point (AID 588549). As to conditions: at 12.5 µM, stronger effect = higher value.
For the compound `O=[N+]([O-])c1ccc2c(c1)nnn2O`, the inhibition is inactive: -1.64%.

`CCOP1(=S)c2c(C)nn(CCC#N)c2N=C(c2ccc(F)cc2)N1C` (stereo not drawn): the inhibition is inactive: -1.47%. To `N#CCCN(C(=O)COC(=O)C(O)(c1ccccc1)c1ccccc1)c1ccc(F)cc1` belongs inactive: -0.72%; to `COc1cc(C(=O)NCC2(N3CCOCC3)CCCCC2)ccc1OCC(C)C`, inactive: -3.49%; to `O=[N+]([O-])c1ccc(-c2cc([N+](=O)[O-])c(O)c([N+](=O)[O-])c2)cc1`, inactive: 1.76%. On to `O=[As](O)(c1ccc(O)cc1)c1ccccc1O`, for which the inhibition was inactive: -4.87%. On to `C[As](=O)(O)c1cccc(C(=O)O)c1`, for which the inhibition was inactive: -5.35%.

For the compound `Cc1ccc2nc3c(c(C)c2c1)CC(C(Cl)Cl)S3` (stereo not drawn), the inhibition is inactive: -0.922%. On to `Cc1ccc(OP(=O)(Nc2ccc([N+](=O)[O-])cn2)Oc2ccc(C)cc2)cc1`, for which the inhibition is inactive: -1.66%.

Turning to `CC(C)c1ccc(OP(=O)(Nc2ccccn2)Oc2ccccc2F)cc1` (stereo not drawn), the inhibition is inactive: -2.04%. For the compound `COC(=O)C1(C)COP(=O)(N2CCCCCC2)OC1` (stereo not drawn), the inhibition was inactive: -1.31%. Consider `ClCCSc1nnc(-c2cccnc2)o1`, for which the inhibition was inactive: -3.69%. `O=[N+]([O-])c1cc([N+](=O)[O-])c(-c2ccn[nH]2)s1`: the inhibition is inactive: 1.63%.

Turning to `CCN(CC)C(=S)SC(NC=O)C(Cl)(Cl)Cl` (stereo not drawn), the inhibition is inactive: -3.65%. For the compound `O=C(OC1CN2CCC1CC2)c1cccc2[nH]cnc12` (stereo not drawn), the inhibition is inactive: -0.416%. Regarding `CC(C)NC(=O)NP(=O)(Oc1ccccc1)Oc1ccccc1`, the inhibition is inactive: -0.971%. With `Cc1cc(=O)[nH]c(N[N+](=O)[O-])n1`, the inhibition is inactive: -2.2%. Take `O=C(OC1CN2CCC1CC2)C12CC3CC(CC(C3)C1)C2` (stereo not drawn): the inhibition was inactive: -2.58%. For the compound `Cc1c2c(nc3ccccc13)SC(C(Cl)Cl)C2` (stereo not drawn), the inhibition is inactive: -4.75%. In the case of `COc1cc(I)ccc1[As](=O)(O)O`, the inhibition is inactive: -1.53%. To `COc1ccc2nc(NP(=O)(c3ccccc3)c3ccccc3)sc2c1` belongs inactive: -3.94%; to `O=P1(N(CCCl)CCCl)Nc2ccccc2N1`, inactive: -2.1%; to `O=P1(N(CCCl)CCCl)OCCCN1CCCl` (stereo not drawn), inactive: -0.973%.

As for `COc1ccc(N/C(=N/P(=O)(N2CCOCC2)N2CCOCC2)N2CCOCC2)cc1`, the inhibition is inactive: -2.96%. On to `O=[N+]([O-])c1cc(Oc2ccc([N+](=O)[O-])cc2C(F)(F)F)cc([N+](=O)[O-])c1`, for which the inhibition was inactive: -2.2%.

For the compound `COC(=O)C1(C)COP(=O)(N2CCCC2)OC1` (stereo not drawn), the inhibition was inactive: -0.426%. Turning to `COP1(=S)c2c(C)nn(CCC#N)c2N=C(c2ccc(F)cc2)N1C` (stereo not drawn), the inhibition is inactive: 0.002%. For the compound `O=C(Nc1ccncc1[N+](=O)[O-])c1ccc([N+](=O)[O-])cc1[N+](=O)[O-]`, the inhibition was inactive: -1.46%. For the compound `O=C(COc1ccccc1)OC1CN2CCC1CC2` (stereo not drawn), the inhibition was inactive: 1.58%. As for `O=C(O)C(=O)c1ccc(N(CCCl)CCCl)cc1`, the inhibition is inactive: -3.85%.

On to `CCOC(=O)c1ccc(NC(=O)C(C)(CCl)SC)cc1` (stereo not drawn), for which the inhibition was inactive: -1.93%. As for `CSc1ccc(Nc2c([N+](=O)[O-])cc([N+](=O)[O-])cc2[N+](=O)[O-])cc1`, the inhibition is inactive: 1.48%. In the case of `CCC(C)N(CC(C)C)C(=S)SC(NC(C)=O)C(Cl)(Cl)Cl` (stereo not drawn), the inhibition is inactive: -3.27%. With `CC1CCNP(=O)(N(CCCl)CCCl)O1` (stereo not drawn), the inhibition is inactive: -3.53%.

`CCOC(=O)Nc1ccc([As](=O)(O)O)c(O)c1`: the inhibition was inactive: -2.41%. On to `O=C(O)C(O)c1ccc(N(CCCl)CCCl)cc1` (stereo not drawn), for which the inhibition is inactive: 0.146%. As for `Cc1cc(SC(NC(=O)c2ccccc2)C(Cl)(Cl)Cl)nc(C(C)C)n1` (stereo not drawn), the inhibition is inactive: 0.548%. For `CCCCOc1ccc(C(=O)NCC2(N3CCCCC3)CCCCC2)cc1OC`, the inhibition is inactive: -2.3%.

Consider `COP(=O)(OC)N1CC1c1ccccc1` (stereo not drawn), for which the inhibition was inactive: -1.77%. Take `CCOC(=O)Nc1cccc([As](=O)(O)O)c1`: the inhibition was inactive: -1.11%. Take `O=[N+]([O-])c1ccc(Nc2ccc(Oc3ccc([N+](=O)[O-])cc3[N+](=O)[O-])cc2)c([N+](=O)[O-])c1`: the inhibition is inactive: -3.77%. `O=P(Nc1ccccn1)(c1cccc2ccccc12)c1cccc2ccccc12`: the inhibition is inactive: -2.32%. On to `Cc1cc(SC(NC=O)C(Cl)(Cl)Cl)ncn1` (stereo not drawn), for which the inhibition is inactive: -0.808%.
